Results: article PMC6389498, “Control of Bacterial Virulence through the Peptide Signature of the Habitat” (Cell Reports, 2019)
Construct, isoform or probe ends are uncertain for at least one entry. At least one verdict rests on a figure or table, not on a statement of the authors.

Protein sequences, listed by entry. Tags and fused reporters are not part of them. Lines headed by an entry give the natural chain unless they say otherwise; changes in a name come on top.
UniProt P22262: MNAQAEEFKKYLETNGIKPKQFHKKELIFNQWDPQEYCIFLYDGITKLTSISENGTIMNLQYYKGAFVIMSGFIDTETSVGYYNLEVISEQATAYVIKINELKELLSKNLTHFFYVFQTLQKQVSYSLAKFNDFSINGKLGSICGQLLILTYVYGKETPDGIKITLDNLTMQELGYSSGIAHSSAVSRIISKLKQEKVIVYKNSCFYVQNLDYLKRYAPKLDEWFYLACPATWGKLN

Target: PrfA WT (Listeria monocytogenes) (UniProt P22262)
Assay: BLI
Details: no ligand; recombinant protein; residues 1-237; protein details: His-tag (pET28a); label: 5' biotin-TEG on both listed oligos (S44, S45)

Sequence: TGTCCCTTTATCGTCGTTAACAAATGTTAATGCCTCGACA (double strand) [PplcA/Phly PrfA box (Phlybox)]
- binding result: binds
